In ChEMBL document CHEMBL1150695, “The synthesis of SO-3, a conopeptide with high analgesic activity derived from Conus striatus” (2003):

System: Rattus norvegicus
Assay: Toxicity in rat at 2 ug/kg administered intrathecally daily for 15 days measured after day 15
Details: in vivo, icv_or_intrathecal, 0.002 mg/kg, 360 h

For `CC[C@H](C)[C@@H]1NC(=O)[C@H](CCCNC(=N)N)NC(=O)[C@H](CO)NC(=O)[C@@H]2CSSC[C@@H]3NC(=O)[C@H](CO)NC(=O)CNC(=O)[C@H]([C@H](C)O)NC(=O)[C@H](CSSC[C@H](N)C(=O)N[C@@H](CCCCN)C(=O)N[C@@H](C)C(=O)N[C@@H](C)C(=O)NCC(=O)N[C@@H](CCCCN)C(=O)N4CCC[C@H]4C(=O)N2)NC(=O)[C@H](CSSC[C@@H](C(N)=O)NC(=O)[C@H](CCCCN)NC(=O)CNC(=O)[C@H](CO)NC(=O)[C@H](CCCNC(=N)N)NC3=O)NC(=O)[C@H](CC(N)=O)NC(=O)[C@H](Cc2ccc(O)cc2)NC(=O)[C@H](C)NC1=O`, the Activity was “Non-toxic”.
